In the assay the target is biotinylated monomeric MOW15–22 RBD (MOW15–22 (bat MERSr-CoV sampled in Pipistrellus nathusii)). The assay can be described thus: BLI. Conditions: domain or fragment.

Usually koff stands for a measure of how fast the partners let go of each other. The low end stands for slow dissociation, the high end for fast dissociation. “monomeric P.nat ACE2 ectodomain (residues 17–614, avi-His8)” came in with a koff of 0.0129 s⁻¹.

For the origin of these results see article PMC12360793.
